## Sequence variants of PSTVd loop 15 after infection

Values reported by Wu et al. 2024 (doi:10.1371/journal.ppat.1012142).

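A pool of all variants was put on leaves of three Nicotiana benthamiana plants. Samples came from the inoculated region at 5 days, the leaf margin at 10 and upper systemic leaves at 12.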

PSTVd intermediate strain, loop 15: wild type GGAAACCGCUACUAC, pool pattern GGAAACCGNNNNNNC; upper and lower strand joined, each 5' to 3', the first 7 letters being the upper strand, closing pairs included.

Values are reads per thousand in the sample; higher means more abundant, 0 means not found. Each site shows the three plants. "Pool" is the share in the plasmid pool used as inoculum, on the same scale. The inoculated region was read from the minus strand, the other sites from the plus strand. IR is the inoculated region, LM the leaf margin, Sys the systemic leaves. For reference, wild type rose from 33.9 per thousand in the pool to 202, 200, 159 (inoculated region), 724, 746, 710 (leaf margin) and 856, 883, 880 (systemic leaves).

| sequence | pool | IR | LM | Sys |
|---|---|---|---|---|
| GGAAACCGGAAUGGC | 0.288 | 0.0819 / 0.0321 / 0.133 | 0 / 0 / 0 | 0 / 0 / 0 |
| GGAAACCGGAAUGUC | 0.192 | 0.0491 / 0.145 / 0.0571 | 0.0162 / 1.29 / 0.0200 | 0 / 0 / 0 |
| GGAAACCGGAAUUAC | 0.256 | 0.311 / 0.386 / 0.400 | 0.0970 / 0.0891 / 0.100 | 0.0161 / 0.0454 / 0.114 |
| GGAAACCGGAAUUCC | 0.144 | 0.0491 / 0.0803 / 0.0952 | 0 / 0.0223 / 0.0401 | 0 / 0 / 0 |
| GGAAACCGGAAUUGC | 0.240 | 0.115 / 0.0321 / 0.0952 | 0.0162 / 0 / 0 | 0 / 0 / 0 |
| GGAAACCGGAAUUUC | 0.224 | 0.278 / 0.273 / 0.419 | 0.0970 / 0.134 / 0.140 | 0.0966 / 0 / 0 |
| GGAAACCGGACAAAC | 0.320 | 0.0491 / 0.0643 / 0.0190 | 0 / 0 / 0.0200 | 0 / 0 / 0 |
| GGAAACCGGACAACC | 0.240 | 0.0819 / 0.145 / 0.114 | 0 / 0 / 0.0200 | 0 / 0 / 0 |
| GGAAACCGGACAAGC | 0.112 | 0.180 / 0.0643 / 0.0952 | 0 / 0.0223 / 0 | 0 / 0 / 0 |
| GGAAACCGGACAAUC | 0.240 | 0.0655 / 0.112 / 0.152 | 0.0162 / 0 / 0.0200 | 0 / 0 / 0.0228 |
| GGAAACCGGACACAC | 0.336 | 0.0819 / 0.112 / 0.0952 | 0 / 0 / 0.0200 | 0 / 0 / 0 |
| GGAAACCGGACACCC | 0.256 | 0.115 / 0.0964 / 0.133 | 0 / 0.0223 / 0 | 0.0322 / 0 / 0 |
| GGAAACCGGACACGC | 0.192 | 0.0655 / 0.0964 / 0.114 | 0 / 0 / 0.0200 | 0 / 0 / 0 |
| GGAAACCGGACACUC | 0.176 | 0.0819 / 0.0482 / 0.114 | 0 / 0 / 0 | 0.0161 / 0 / 0 |
| GGAAACCGGACAGAC | 0.224 | 0.0983 / 0.0482 / 0.0190 | 0 / 0.0223 / 0 | 0 / 0 / 0 |
| GGAAACCGGACAGCC | 0.208 | 0.0819 / 0.177 / 0.0952 | 0 / 0.0223 / 0.0401 | 0 / 0 / 0 |
| GGAAACCGGACAGGC | 0.288 | 0.0491 / 0.129 / 0.0571 | 0 / 0 / 0.0200 | 0 / 0 / 0 |
| GGAAACCGGACAGUC | 0.192 | 0.115 / 0.0321 / 0.114 | 0 / 0.0223 / 0 | 0 / 0 / 0 |
| GGAAACCGGACAUAC | 0.240 | 0.0491 / 0.0482 / 0.0571 | 0 / 0 / 0.0401 | 0 / 0 / 0 |
| GGAAACCGGACAUCC | 0.208 | 0.0328 / 0.0643 / 0.114 | 0.0485 / 0 / 0.0200 | 0.0161 / 0 / 0 |
| GGAAACCGGACAUGC | 0.176 | 0.0819 / 0.0321 / 0 | 0.0162 / 0 / 0.0200 | 0 / 0 / 0 |
| GGAAACCGGACAUUC | 0.208 | 0.0655 / 0.112 / 0.0381 | 0 / 0 / 0 | 0 / 0 / 0 |
| GGAAACCGGACCAAC | 0.240 | 0.164 / 0.0803 / 0.0571 | 0 / 0 / 0 | 0.0161 / 0 / 0 |
| GGAAACCGGACCACC | 0.176 | 0.0983 / 0.112 / 0.0762 | 0.0162 / 0 / 0.0401 | 0 / 0 / 0 |
| GGAAACCGGACCAGC | 0.432 | 0.115 / 0.0321 / 0.190 | 0 / 0.0223 / 0.0401 | 0 / 0 / 0 |
| GGAAACCGGACCAUC | 0.320 | 0.115 / 0.177 / 0.171 | 0 / 0 / 0 | 0.0161 / 0 / 0 |
| GGAAACCGGACCCAC | 0.224 | 0.180 / 0.0803 / 0.0952 | 0 / 0 / 0 | 0 / 0 / 0 |
| GGAAACCGGACCCCC | 0.240 | 0.115 / 0.0161 / 0.0762 | 0.0162 / 0 / 0 | 0 / 0 / 0 |
| GGAAACCGGACCCGC | 0.320 | 0.147 / 0.0643 / 0.190 | 0.0162 / 0 / 0.0200 | 0 / 0 / 0 |
| GGAAACCGGACCCUC | 0.272 | 0.115 / 0.0964 / 0.0571 | 0 / 0.0445 / 0 | 0 / 0 / 0 |
| GGAAACCGGACCGAC | 0.176 | 0.229 / 0.0803 / 0.0952 | 0.0323 / 0.0223 / 0 | 0.0161 / 0 / 0 |
| GGAAACCGGACCGCC | 0.288 | 0.0983 / 0.145 / 0.248 | 0 / 0.0445 / 0.0401 | 0.0483 / 0 / 0 |
| GGAAACCGGACCGGC | 0.160 | 0.180 / 0.0803 / 0.133 | 0.0162 / 0.0223 / 0 | 0 / 0 / 0.0228 |
| GGAAACCGGACCGUC | 0.192 | 0.0819 / 0.0964 / 0.114 | 0 / 0.0223 / 0 | 0 / 0 / 0 |
| GGAAACCGGACCUAC | 0.384 | 0.115 / 0.0964 / 0.0381 | 0.0485 / 0 / 0.0200 | 0 / 0 / 0 |
| GGAAACCGGACCUCC | 0.240 | 0.0819 / 0.0482 / 0.0762 | 0 / 0.0223 / 0 | 0 / 0 / 0 |
| GGAAACCGGACCUGC | 0.128 | 0.0819 / 0.193 / 0.0762 | 0 / 0.0223 / 0 | 0 / 0 / 0 |
| GGAAACCGGACCUUC | 0.192 | 0.0983 / 0.0964 / 0.0571 | 0 / 0 / 0.0200 | 0 / 0 / 0 |
| GGAAACCGGACGAAC | 0.304 | 0.0983 / 0.0482 / 0.114 | 0 / 0.0223 / 0 | 0 / 0 / 0 |
| GGAAACCGGACGACC | 0.224 | 0.0491 / 0.0803 / 0.209 | 0.0323 / 0.0223 / 0 | 0 / 0 / 0 |
| GGAAACCGGACGAGC | 0.208 | 0.213 / 0.0643 / 0.114 | 0.0162 / 0 / 0 | 0 / 0 / 0 |
| GGAAACCGGACGAUC | 0.144 | 0.0983 / 0.145 / 0.114 | 0.0162 / 0 / 0 | 0 / 0 / 0 |
| GGAAACCGGACGCAC | 0.272 | 0.115 / 0.177 / 0.152 | 0.0162 / 0.0223 / 0 | 0 / 0 / 0 |
| GGAAACCGGACGCCC | 0.336 | 0.0819 / 0.0803 / 0.0381 | 0 / 0.0223 / 0 | 0 / 0 / 0 |
| GGAAACCGGACGCGC | 0.336 | 0.0491 / 0.0964 / 0.114 | 0 / 0 / 0.0200 | 0 / 0 / 0 |
| GGAAACCGGACGCUC | 0.160 | 0.0819 / 0.0643 / 0.0762 | 0 / 0 / 0 | 0 / 0 / 0 |
| GGAAACCGGACGGAC | 0.224 | 0.115 / 0.209 / 0.133 | 0 / 0.0445 / 0 | 0 / 0 / 0 |
| GGAAACCGGACGGCC | 0.128 | 0.0491 / 0.0482 / 0.0762 | 0 / 0.0223 / 0.0601 | 0 / 0 / 0 |
| GGAAACCGGACGGGC | 0.176 | 0.0983 / 0.0803 / 0.0571 | 0.0162 / 0 / 0.0200 | 0.0161 / 0 / 0 |
| GGAAACCGGACGGUC | 0.288 | 0.295 / 0.0964 / 0.0190 | 0 / 0.0223 / 0.0200 | 0.0322 / 0 / 0 |
| GGAAACCGGACGUAC | 0.192 | 0.246 / 0.402 / 0.343 | 0.194 / 0.0891 / 0.180 | 0.0161 / 0.0454 / 0.0228 |
| GGAAACCGGACGUCC | 0.192 | 0.0491 / 0.129 / 0.0952 | 0.0162 / 0 / 0 | 0 / 0 / 0 |
| GGAAACCGGACGUGC | 0.144 | 0.262 / 0.273 / 0.133 | 0 / 0 / 0.0200 | 0 / 0 / 0 |
| GGAAACCGGACGUUC | 0.208 | 0.328 / 0.257 / 0.381 | 0.0647 / 0.156 / 0.100 | 0.0805 / 0 / 0 |
| GGAAACCGGACUAAC | 0.240 | 0 / 0.0643 / 0.114 | 0 / 0 / 0.0200 | 0 / 0 / 0 |
| GGAAACCGGACUACC | 0.192 | 0.0328 / 0.0482 / 0.152 | 0 / 0 / 0 | 0 / 0 / 0 |
| GGAAACCGGACUAGC | 0.160 | 0.164 / 0.145 / 0.0762 | 0 / 0 / 0 | 0 / 0 / 0 |
| GGAAACCGGACUAUC | 0.144 | 0.131 / 0.0482 / 0.133 | 0 / 0.0223 / 0.0601 | 0 / 0 / 0 |
| GGAAACCGGACUCAC | 0.208 | 0.0819 / 0.129 / 0.209 | 0 / 0.557 / 0.0601 | 0 / 0 / 0 |
| GGAAACCGGACUCCC | 0.240 | 0.0983 / 0.0803 / 0.0571 | 0 / 0 / 0 | 0.0161 / 0 / 0 |
| GGAAACCGGACUCGC | 0.160 | 0.197 / 0.0161 / 0.0952 | 0.0162 / 0.0223 / 0 | 0 / 0 / 0 |
| GGAAACCGGACUCUC | 0.160 | 0.0983 / 0.129 / 0.0952 | 0.0162 / 0 / 0.0200 | 0 / 0 / 0 |
| GGAAACCGGACUGAC | 0.208 | 0.0164 / 0.0643 / 0.114 | 0.0162 / 0 / 0.0200 | 0 / 0 / 0 |
| GGAAACCGGACUGCC | 0.208 | 0.115 / 0.0321 / 0.114 | 0 / 0.0223 / 0 | 0 / 0 / 0 |
| GGAAACCGGACUGGC | 0.192 | 0.0655 / 0.0643 / 0.0571 | 0 / 0 / 0.0200 | 0 / 0 / 0.0228 |
| GGAAACCGGACUGUC | 0.336 | 0.131 / 0.0643 / 0.0571 | 0.0162 / 0.0223 / 0.0200 | 0 / 0 / 0.0228 |
| GGAAACCGGACUUAC | 0.144 | 0.0819 / 0.145 / 0.0762 | 0.0162 / 0 / 0 | 0 / 0 / 0 |
| GGAAACCGGACUUCC | 0.288 | 0.180 / 0.112 / 0.0571 | 0 / 0 / 0 | 0.0161 / 0 / 0 |

Extract of 8 entries:

sequence,pool,IR,LM,Sys
GGAAACCGGACCAAC,0.240,0.164 / 0.0803 / 0.0571,0 / 0 / 0,0.0161 / 0 / 0
GGAAACCGGACAUAC,0.240,0.0491 / 0.0482 / 0.0571,0 / 0 / 0.0401,0 / 0 / 0
GGAAACCGGACUUCC,0.288,0.180 / 0.112 / 0.0571,0 / 0 / 0,0.0161 / 0 / 0
GGAAACCGGACCUUC,0.192,0.0983 / 0.0964 / 0.0571,0 / 0 / 0.0200,0 / 0 / 0
GGAAACCGGACAUCC,0.208,0.0328 / 0.0643 / 0.114,0.0485 / 0 / 0.0200,0.0161 / 0 / 0
GGAAACCGGACACGC,0.192,0.0655 / 0.0964 / 0.114,0 / 0 / 0.0200,0 / 0 / 0
GGAAACCGGAAUUUC,0.224,0.278 / 0.273 / 0.419,0.0970 / 0.134 / 0.140,0.0966 / 0 / 0
GGAAACCGGACCUCC,0.240,0.0819 / 0.0482 / 0.0762,0 / 0.0223 / 0,0 / 0 / 0

The authors trace changes outside the varied positions to PCR and sequencing errors or to mutation in the plant; presence does not show that a variant is infectious alone. Samples held 43,870 to 66,106 reads, so the smallest values rest on one or two reads.